# Values of other authors, collected in paper PMC2907105 (Biochemistry, 2010).
# Amino acid sequences for entries named in this document (tags omitted).
# UniProt P04775, whole entry, looked up: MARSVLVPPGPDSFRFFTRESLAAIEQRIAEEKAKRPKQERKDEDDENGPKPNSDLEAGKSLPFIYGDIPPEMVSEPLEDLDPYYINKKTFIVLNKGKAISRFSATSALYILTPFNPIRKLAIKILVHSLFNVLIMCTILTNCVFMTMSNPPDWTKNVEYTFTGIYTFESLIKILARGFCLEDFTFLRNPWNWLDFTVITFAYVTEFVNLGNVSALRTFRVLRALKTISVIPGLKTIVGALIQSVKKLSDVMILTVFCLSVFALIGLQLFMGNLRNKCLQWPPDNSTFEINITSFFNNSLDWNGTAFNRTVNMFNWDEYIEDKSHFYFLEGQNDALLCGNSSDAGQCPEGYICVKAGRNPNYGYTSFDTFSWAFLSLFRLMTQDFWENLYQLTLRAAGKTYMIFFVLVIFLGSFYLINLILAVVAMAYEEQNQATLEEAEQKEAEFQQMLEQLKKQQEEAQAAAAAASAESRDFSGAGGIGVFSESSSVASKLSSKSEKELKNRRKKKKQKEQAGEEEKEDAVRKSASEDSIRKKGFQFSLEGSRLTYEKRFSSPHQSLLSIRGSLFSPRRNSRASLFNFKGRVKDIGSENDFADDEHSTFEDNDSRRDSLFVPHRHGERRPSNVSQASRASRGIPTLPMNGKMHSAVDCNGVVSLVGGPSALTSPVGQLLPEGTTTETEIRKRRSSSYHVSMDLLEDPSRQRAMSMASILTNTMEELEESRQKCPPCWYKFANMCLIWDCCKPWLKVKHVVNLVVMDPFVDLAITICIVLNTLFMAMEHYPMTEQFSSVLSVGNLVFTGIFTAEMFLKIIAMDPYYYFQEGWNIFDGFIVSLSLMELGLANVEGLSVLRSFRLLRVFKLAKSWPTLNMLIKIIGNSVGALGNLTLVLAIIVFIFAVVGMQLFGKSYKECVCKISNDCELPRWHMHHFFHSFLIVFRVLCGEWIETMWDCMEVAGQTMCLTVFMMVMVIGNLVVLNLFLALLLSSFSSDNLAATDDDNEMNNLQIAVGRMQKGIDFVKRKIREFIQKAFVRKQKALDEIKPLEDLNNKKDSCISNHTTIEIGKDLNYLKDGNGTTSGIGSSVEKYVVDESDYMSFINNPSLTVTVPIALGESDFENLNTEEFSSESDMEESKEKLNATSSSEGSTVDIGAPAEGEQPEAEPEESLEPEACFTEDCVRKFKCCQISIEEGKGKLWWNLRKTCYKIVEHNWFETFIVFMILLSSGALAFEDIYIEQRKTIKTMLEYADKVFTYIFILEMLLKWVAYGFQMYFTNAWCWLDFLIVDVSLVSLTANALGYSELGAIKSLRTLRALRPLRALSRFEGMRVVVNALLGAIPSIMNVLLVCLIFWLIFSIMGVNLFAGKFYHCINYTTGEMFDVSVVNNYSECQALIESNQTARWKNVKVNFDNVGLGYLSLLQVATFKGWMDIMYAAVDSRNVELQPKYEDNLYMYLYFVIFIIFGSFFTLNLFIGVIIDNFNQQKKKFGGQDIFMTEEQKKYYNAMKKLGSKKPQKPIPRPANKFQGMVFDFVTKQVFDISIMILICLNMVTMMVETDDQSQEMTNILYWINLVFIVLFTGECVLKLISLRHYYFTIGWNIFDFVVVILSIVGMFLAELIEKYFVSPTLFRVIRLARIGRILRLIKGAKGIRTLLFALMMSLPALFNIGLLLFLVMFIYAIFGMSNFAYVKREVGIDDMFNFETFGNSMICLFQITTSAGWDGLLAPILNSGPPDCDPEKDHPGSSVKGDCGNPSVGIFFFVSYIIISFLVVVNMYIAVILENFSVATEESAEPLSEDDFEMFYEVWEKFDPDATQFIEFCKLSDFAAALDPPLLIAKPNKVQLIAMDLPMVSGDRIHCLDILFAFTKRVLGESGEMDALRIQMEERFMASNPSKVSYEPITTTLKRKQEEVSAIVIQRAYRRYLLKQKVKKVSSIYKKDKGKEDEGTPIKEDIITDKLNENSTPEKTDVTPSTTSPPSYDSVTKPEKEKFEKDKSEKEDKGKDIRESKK
# Target: rat NaV1.2 (Rattus norvegicus, UniProt P04775)
smiles,measurement,value
"NC1=N[C@H](O)[C@H]2[C@H]3O[C@]4(O)O[C@@H]([C@@H](O)[C@@]2(N1)[C@@H]4O)[C@]3(O)CO [TTX, tetrodotoxin]",Kd,38 ± 6 nM
